Data set [1] concerns CadCc. Kind of data set: competition EMSA. As to conditions: displaces 30 uM H-NS, starts at 18.75 uM CadCc, complete at about 150 uM; EMSA: 20 mM Tris-HCl pH 8.0, 100 mM NaCl, 1 mM MgCl2, 1 mM ZnCl2, 4% glycerol, RT 10 min (competition 4 C, 30 min + 30 min); recombinant protein; protein details: N-terminal 6xHis (pGL01); probe letters rebuilt from the primers and the genome. In general terms: A gel shift assay detects complexes by their altered migration in electrophoresis.

Data set [2] relates to CadCc. The data set can be described thus: EMSA. As to conditions: shift at protein:DNA ratio above 2, 5 uM DNA; EMSA: 20 mM Tris-HCl pH 8.0, 100 mM NaCl, 1 mM MgCl2, 1 mM ZnCl2, 4% glycerol, RT 10 min (competition 4 C, 30 min + 30 min); recombinant protein; protein details: N-terminal 6xHis (pGL01); probe letters rebuilt from the primers and the genome.
Data set [3] addresses T1, H-NS (UniProt P0ACF8).
T1 sequence (looked up, limits assumed): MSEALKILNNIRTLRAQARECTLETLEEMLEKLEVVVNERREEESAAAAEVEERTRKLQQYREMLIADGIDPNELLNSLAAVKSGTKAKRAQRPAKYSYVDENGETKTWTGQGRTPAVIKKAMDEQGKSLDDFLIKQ
Kind of data set: EMSA. The note with it: shift at protein:DNA ratio above 4, 5 uM DNA; EMSA: 20 mM Tris-HCl pH 8.0, 100 mM NaCl, 1 mM MgCl2, 1 mM ZnCl2, 4% glycerol, RT 10 min (competition 4 C, 30 min + 30 min); recombinant protein; protein details: N-terminal 6xHis (pGL01); probe letters rebuilt from the primers and the genome.

The test system of data set [4] is CadCc. The data set can be described thus: DNase I footprinting. The note with it: 33 nt protected; footprinting: 30 C, 30 min; recombinant protein; protein details: N-terminal 6xHis (pGL01); label: 5' FAM on S32; probe letters rebuilt from the primers and the genome.
The target in data set [5] is T1, H-NS. Kind of data set: DNase I footprinting. The note with it: 51 nt and 34 nt regions protected; footprinting: 30 C, 30 min; recombinant protein; protein details: N-terminal 6xHis (pGL01); label: 5' FAM on S32; probe letters rebuilt from the primers and the genome.

For some assays here: Construct, isoform or probe ends are uncertain for at least one entry. For some assays here: Tags and fusion partners may be left off the protein sequences shown.

With “CCTCGCAGACGATATAAATTTTATAGTCTATTTTTAACATATCGCCGGTTGAACTTATGACATCTGTTGTCATCATATATAATGATATAACCGTAGCATTTACAAACGTACTTTTATTAAAAACGGGCGTGTTCACGCCCTGTGAAAAGTACAAGATTGAATATTGGTTTATAATCAGAGTAAGTTAAAAAAAGGAACCGGTTCACCGGTAAACAAGAAAAATGATGACGCTTCAATTAGTATCTGAAGTTACGTCTGTTTCCGTCCGTAGTGACTGGATGGCGAATAGCGCCCTAACCATGGGACTGGCGTA (double strand) [ydiV promoter 313 bp]”, the binding result in the data set with CadCc [1], with CadCc [2] and with H-NS [3] was “binds” throughout.

As for “CCTCGCAGACGATATAAATTTTATAGTCTATTTTTAACATATCGCCGGTTGAACTTATGACATCTGTTGTCATCATATATAATGATATAACCGTAGCATTTACAAACGTACTTTTATTAAAAACGGGCGTGTTCACGCCCTGTGAAAAGTACAAGATTGAATATTGGTTTATAATCAGAGTAAGTTAAAAAAAGGAACCGGTTCACCGGTAAACAAGAAAAATGATGACGCTTCAATTAGTATCTGAAGTTACGTCTGTTTCCGTCCGTAGTGACTGGATGGCGAATAGCGCCCTAACCATGGGACTGGCGTA (double strand) [ydiV promoter footprinting probe]”, the binding result with CadCc [4] and with H-NS [5] was “binds” throughout.

Source of the values: article PMC9728131, “Host acid signal controls Salmonella flagella biogenesis through CadC-YdiV axis”.
